Results of unrelated studies side by side (data: NIAID ChemDB).

Common to all: whole-cell or culture tests; species: Cytomegalovirus; read-out: EC50

ECn: concentration that inhibits the pathogen or its effect by n%. Blank or dashed fields: not listed here. Conditions beyond the fields shown may differ between rows.

smiles | method | strain | cell line | value
Cc1ccc[n+]([O-])c1S(=O)(=O)Cc1ccccc1 | cytopathic effect |  | HEL | >20 µg/mL
Nc1ccn(C[C@@H](CO)OCP(=O)(O)O)c(=O)n1 | plaque count | AD169 | HEL | 0.07 µg/mL
O=S(=O)(Cc1ccccc1)c1ncccc1O | cytopathic effect |  | HEL | >50 µg/mL
C=C[C@@H](O)C1=C[C@@H](n2cnc3c(N)ncnc32)[C@H](O)[C@@H]1O | cytopathic effect | AD169 | HEL | >50 µg/mL
Cc1ccccc1C(C(N)=O)S(=O)c1cccc[n+]1[O-] | cytopathic effect |  | HEL | >50 µg/mL
CC1(C)[C@@H](CCO)C[C@H]1n1cnc2c(N)nc(N)nc21 | plaque count | DAVIS | HEL | >50 µg/mL
Nc1nc2c(ncn2[C@H]2CCC[C@H]2CO)c(=O)[nH]1 | plaque count | AD169 | HEL | >50 µg/mL
Nc1nc(F)nc2c1ncn2[C@@H]1C=C(CO)[C@@H](O)[C@H]1O | cytopathic effect | AD169 | HEL | 1.5 µg/mL
CC1(C)[C@@H](CCO)C[C@H]1n1nnc2c(=O)[nH]cnc21 | plaque count | DAVIS | HEL | >20 µg/mL
CCCCCc1ccc(-c2cc3cn([C@H]4C[C@H](Cl)[C@@H](CO)O4)c(=O)nc3o2)cc1 |  |  | HEL | >5 µM
O=c1ccn([C@@H]2O[C@H](CO)[C@](O)(C(F)(F)F)[C@H]2O)c(=O)[nH]1 | cytopathic effect | AD169 | VERO | >50 µg/mL
O=S(Cc1cccc(C(F)(F)F)c1)c1cccc[n+]1[O-] | cytopathic effect |  | HEL | >50 µg/mL
O=C(CCCCCCC(=O)Nc1cc(S(=O)(=O)O)cc2cc(S(=O)(=O)O)cc(O)c12)Nc1cc(S(=O)(=O)O)cc2cc(S(=O)(=O)O)cc(O)c12 | plaque count | Isolate T-1082 | MRC-5 | 10 µM
C#C[C@@H](O)C1=C[C@@H](n2cnc3c(N)ncnc32)[C@H](O)[C@@H]1O | cytopathic effect | DAVIS | HEL | >50 µg/mL
Cc1ccc[n+]([O-])c1S(=O)(=O)C(C)c1cccc([N+](=O)[O-])c1C | cytopathic effect |  | HEL | >50 µg/mL
CC(C)C[C@H](NC(=O)n1nnc2ccccc21)C(=O)NC1CCCCC1 | plaque count | AD169 | HEL | >16 µg/mL
OC[C@H]1O[C@@H](c2cc(C(O)C(Br)Br)c(F)cc2F)C[C@@H]1O | cytopathic effect | AD169 | HEL | >200 µg/mL
Nc1ncnc2c1ncn2[C@@H]1O[C@H](CO)[C@](O)(C(F)(F)F)[C@H]1O | cytopathic effect | DAVIS | VERO | >50 µg/mL
Nc1nc2c(ncn2CC(CO)OCP(=O)(O)O)c(=O)[nH]1 | plaque count | AD169 | HEL | 0.1 µg/mL
COc1cccnc1SCc1cc(C)ccc1C | cytopathic effect |  | HEL | >50 µg/mL
Nc1nc(=O)n([C@@H]2O[C@H](CO)[C@@H](O)[C@@H]2F)cc1I | cytopathic effect | AD169 | HEL | 7 µg/mL
Nc1nc(N)c2ncn([C@H]3CCC[C@H]3CO)c2n1 | plaque count | AD169 | HEL | >50 µg/mL
NC1=NS(=O)(=O)N(Cc2ccccc2)c2nc(-c3ccc(Cl)cc3)[nH]c21 | plaque count | DAVIS | HEL | >5 µg/mL
Nc1ncc2ncn(C[C@H]3CCC[C@H]3CO)c2n1 | plaque count | AD169 | HEL | >5 µg/mL
O=S(=O)(O)c1cc(O)c2c(NS(=O)(=O)c3ccc(-c4ccc(S(=O)(=O)Nc5cc(S(=O)(=O)O)cc6cc(S(=O)(=O)O)cc(O)c56)cc4)cc3)cc(S(=O)(=O)O)cc2c1 | plaque count | AD169 | MRC-5 | 33 µM
Cc1ccc(C)c(C(C)S(=O)(=O)c2c(C)ccc[n+]2[O-])c1 | cytopathic effect |  | HEL | 4.1 µg/mL
CCC(C)C1NC(=O)N(CC2CCCCC2)C1=O | plaque count | DAVIS | HEL | 20 µg/mL
O=c1[nH]c(=O)n([C@H]2C[C@H](Cl)[C@@H](CO)O2)cc1I |  |  | HEL | >5 µM
CCCCCCCC(Sc1cccc[n+]1[O-])c1cc(C)c(C)c(C)c1 | cytopathic effect |  | HEL | 2 µg/mL
CC(C)C[C@H](NC(=O)n1nnc2ccccc21)C(=O)NCC1CCCCC1 | plaque count | AD169 | HEL | >80 µg/mL
NC1=NS(=O)(=O)N(Cc2ccccc2)c2nc[nH]c21 | plaque count | DAVIS | HEL | >50 µg/mL
Nc1nc(Cl)c2ccn([C@H]3CO[C@@H](CO)C3)c2n1 | cytopathic effect | AD169 | HEL | >10 µg/mL
CC[C@H](O)C1=C[C@@H](n2cnc3c(N)ncnc32)[C@H](O)[C@@H]1O | cytopathic effect | DAVIS | HEL | >50 µg/mL
CC(C)CS[C@H]1C[C@@H](n2cnc3c(N)ncnc32)[C@H](O)[C@@H]1O | cytopathic effect | AD169 | HEL | >200 µg/mL
CCCCCCCCc1cc2cn([C@H]3C[C@H](Cl)[C@@H](CO)O3)c(=O)nc2o1 |  |  | HEL | >5 µM
Nc1nc2c(ncn2COCCO)c(=O)[nH]1 | plaque count | DAVIS | HEL | 20 µg/mL
CCC(c1cc(C)ccc1C)S(=O)(=O)c1cccc[n+]1[O-] | cytopathic effect |  | HEL | 0.4 µg/mL
Nc1nc2c(ncn2COC(CO)CO)c(=O)[nH]1 |  | 192 | MRC-5 | 6.3 µM
CC1(C)[C@@H](CCO)C[C@H]1n1nnc2c(=O)[nH]c(N)nc21 | plaque count | DAVIS | HEL | >50 µg/mL
Cc1ccc(C(=O)Nc2ccc(S(=O)(=O)O)c3cc(S(=O)(=O)O)cc(S(=O)(=O)O)c23)cc1NC(=O)c1cccc(NC(=O)Nc2cccc(C(=O)Nc3cc(C(=O)Nc4ccc(S(=O)(=O)O)c5cc(S(=O)(=O)O)cc(S(=O)(=O)O)c45)ccc3C)c2)c1 | plaque count | Isolate T-156 | MRC-5 | 18 µM
Cc1cc(N2CCN(C)CC2)cn2c(CSCCc3ccccc3)cnc12 | plaque count | DAVIS |  | 4 µg/mL
CC1(C)[C@@H](CCO)C[C@H]1n1nnc2c(N)nc(N)nc21 | plaque count | AD169 | HEL | >20 µg/mL
O=S(=O)(Cc1ccccc1)c1c(Cl)ccc[n+]1[O-] | cytopathic effect |  | HEL | >5 µg/mL
Nc1ccn(C[C@@H](CO)OCP(=O)(O)O)c(=O)n1 | plaque count | AD169 |  | 32 µg/mL
O=S(=O)(O)c1cc(NS(=O)(=O)c2ccc(-c3ccc(S(=O)(=O)Nc4cc(S(=O)(=O)O)c5cccc(S(=O)(=O)O)c5c4)cc3)cc2)cc2c(S(=O)(=O)O)cccc12 | plaque count | AD169 | MRC-5 | 42 µM
Nc1nc2c(ccn2[C@H]2CO[C@@H](CO)C2)c(=O)[nH]1 | cytopathic effect | DAVIS | HEL | >40 µg/mL
Cc1ccc(C)c(CS(=O)(=O)c2cccc(C)[n+]2[O-])c1 | cytopathic effect |  | HEL | >50 µg/mL
Nc1ncnc2c1ncn2C[C@@H](CO)OCP(=O)(O)O | plaque count | AD169 | HEL | 0.1 µg/mL
COc1cc(CS(=O)(=O)c2cccc[n+]2[O-])cc(OC)c1OC | cytopathic effect |  | HEL | >50 µg/mL
OC[C@H]1O[C@@H](c2cc(C(O)CBr)c(F)cc2F)C[C@@H]1O | cytopathic effect | AD169 | HEL | >20 µg/mL
Nc1ncnc2c1ncn2C[C@H]1COP(=O)(O)CO1 | cytopathic effect | DAVIS | HEL | 1 µg/mL
Cc1ccc(CSc2ccccn2)cc1C | cytopathic effect |  | HEL | 1.2 µg/mL

The last 6 rows once more:

smiles	method	strain	cell line	value
Cc1ccc(C)c(CS(=O)(=O)c2cccc(C)[n+]2[O-])c1	cytopathic effect		HEL	>50 µg/mL
Nc1ncnc2c1ncn2C[C@@H](CO)OCP(=O)(O)O	plaque count	AD169	HEL	0.1 µg/mL
COc1cc(CS(=O)(=O)c2cccc[n+]2[O-])cc(OC)c1OC	cytopathic effect		HEL	>50 µg/mL
OC[C@H]1O[C@@H](c2cc(C(O)CBr)c(F)cc2F)C[C@@H]1O	cytopathic effect	AD169	HEL	>20 µg/mL
Nc1ncnc2c1ncn2C[C@H]1COP(=O)(O)CO1	cytopathic effect	DAVIS	HEL	1 µg/mL
Cc1ccc(CSc2ccccn2)cc1C	cytopathic effect		HEL	1.2 µg/mL